Results published in PMC6256925, “The Anti-HIV Actions of 7- and 10-Substituted Camptothecins” (Molecules, 2009).

Experiments:
Assay type in all cases: cell-based
[1] = system: HIV-1IIIB; test: Syncytia assay (CPE inhibition), HIV-1IIIB in C8166 cells; settings: ratio CC50 / EC50
Description: (§1) In the presence of 100 μL of various concentrations of the tested compound, C8166 cells (4 × 10^5cells/mL) were infected with virus (HIV-1IIIB, HIV-2CBL-20 or HIV-2ROD) at a multiplicity of infection (M.O.I.) of 0.06. The final volume per well was 200 μL. Control assays were performed without the testing compounds in HIV-1 IIIB infected and uninfected cultures. AZT was included as positive control. After three days of culture, the cytopathic effect (CPE) was measured by counting the number of syncytia in each well under an inverted microscope. EC50 was then calculated.

[2] = system: HIV-2ROD; test: Syncytia assay (CPE inhibition), HIV-2ROD in C8166 cells; settings: ratio CC50 / EC50
Description: as §1

[3] = system: HIV-2CBL-20; test: Syncytia assay (CPE inhibition), HIV-2CBL-20 in C8166 cells; settings: ratio CC50 / EC50
Description: as §1

[4] = system: HIV-1KM018; test: Inhibition of HIV-1 p24 antigen production in PBMC; settings: HIV-1KM018 in PBMC; ratio CC50 / EC50
Description: Adequate numbers of PHA activated normal PBMC were incubated with HIV-1KM018 (M.O.I. = 0.03) in presence of varying concentrations of the compound. After 3 h of virus adsorption, the cells were washed twice with PBS and incubated with or without various concentration of compound in culture medium supplemented with 50 U/mL human recombinant IL-2 at 1.2 × 10^6 cells/mL for seven days. Half of the medium was changed with corresponding compound concentrations on the third day. At seven days post-infection, HIV-1 p24 antigen in cell-free culture supernatants was analyzed by ELSIA. The percent inhibition of HIV-1 p24 antigen production in PBMC was calculated.

Row | Compound | TI (therapeutic index) [1] | TI (therapeutic index) [2] | TI (therapeutic index) [3] | TI (therapeutic index) [4]
1 | CC[C@@]1(O)C(=O)OCc2c1cc1n(c2=O)Cc2c-1nc1ccccc1c2CO [Compound 3, 7-Hydroxymethylcamptothecin] | 198.1 | 66.0 | 317.0 | 66.7
2 | CC[C@@]1(O)C(=O)OCc2c1cc1n(c2=O)Cc2cc3cc(O)ccc3nc2-1 [Compound 2, 10-hydroxycamptothecin] | 4.2 | 5.6 | 10.7 | 3.5
3 | CC[C@@]1(O)C(=O)OCc2c1cc1n(c2=O)Cc2cc3ccccc3nc2-1 [Compound 1, Camptothecin] | 24.2 | 20.6 | 34.5 | 10.3
